Compound potency records, mixed from different reports. Data source: NIAID ChemDB in PubChem.

Common to all: target-level tests; species: HIV-1; protein: Protease

ICn: concentration for n% inhibition.

structure,strain or isolate,endpoint,mutations,method,value
[Cl][Pd][Cl],SF2,IC50,-,fluorescence,>400 µM
ON=C1N(Cc2ccccc2)[C@H](Cc2ccccc2)[C@H](O)[C@@H](O)[C@@H](Cc2ccccc2)N1Cc1ccccc1,-,Ki,-,-,0.042 µM
CC(C)(C)NC(=O)[C@@H]1C[C@@H]2CCCC[C@@H]2N1C(=O)[C@@H](O)[C@H](Cc1ccc(O)cc1)NC(=O)[C@H](CC(N)=O)NC(=O)COc1cccc2ccccc12,BRU,IC50,-,substrate cleavage,0.01 µM
C[C@H]1[C@H](C)CC[C@]2(C(=O)O)CC[C@]3(C)C(=CC[C@@]4(C)[C@@]3(C)CC[C@H]3C(C)(C)C(=O)CC[C@@]34C)[C@H]12,-,IC50,-,HPLC,7.5 µM
CC(C)C[C@H](NC(=O)[C@@H](NC(=O)CCCCCCCCCCCCCCC(=O)N[C@@H](CC(N)=O)C(=O)N[C@@H](CCc1ccccc1)C(=O)O)C(C)O)C(=O)N[C@@H](Cc1ccccc1)C(N)=O,-,IC50,-,-,4.4 µM
CC(C)(C)NC(=O)c1ccccc1C[C@@H](O)[C@H](CSc1ccccc1)NC(=O)[C@H](CC(N)=O)NC(=O)Oc1ccc2ccccc2n1,-,Ki,-,-,>12.5 µM
CC(C)N(CC(=O)N(Cc1ccccc1)CC(O)CN(Cc1ccccc1)C(=O)CN(C(=O)CN(C(=O)OCc1ccccc1)C(C)C)C(C)C)C(=O)CN(C(=O)OCc1ccccc1)C(C)C,-,IC50,-,-,10 µM
CC(C)(C)[C@H](NC(=O)c1nc2ccccc2[nH]1)C(=O)N[C@@H](Cc1ccccc1)[C@H](O)[C@@H](CO)[C@H](Cc1ccccc1)NC(=O)[C@@H](NC(=O)c1nc2ccccc2[nH]1)C(C)(C)C,-,Ki,-,-,3.7 µM
CC(O)C(=O)[O-].CC(O)C(=O)[O-].[Ca+2],SF2,IC50,-,fluorescence,>1000 µM
CC(C)C[C@H](NC(=O)[C@@H](NC(=O)CCCCCCCCCCCCCCC(=O)N[C@@H](C[N+](=O)[O-])C(=O)N[C@@H](Cc1ccccc1)C(=O)O)C(C)O)C(=O)N[C@@H](Cc1ccccc1)C(N)=O,-,IC50,-,-,3.6 µM
CC(C)[C@H](NC(=O)N(C)Cc1ccccn1)C(=O)N[C@@H](Cc1ccccc1)[C@H](O)C(=O)N1[C@H](C(=O)NC(C)(C)C)C[C@@H]2CCCC[C@@H]21,BRU,IC50,-,substrate cleavage,0.025 µM
O=C1N[C@H](Cc2ccccc2)[C@H](O)CN(Cc2ccccc2)[C@H]1Cc1ccccc1,-,Ki,-,HPLC,0.01 µM
CC(C)(C)NC(=O)[C@@H]1CCCN1C(=O)[C@@H](O)[C@H](Cc1ccccc1)NC(=O)[C@H](CC(N)=O)NC(=O)COc1cccc2ccccc12,BRU,IC50,-,substrate cleavage,0.0013 µM
CC(C)(C)[C@H](NC(=O)OCc1ccccc1)C(=O)N[C@@H](Cc1ccccc1)[C@H](O)[C@@H](CO)[C@H](Cc1ccccc1)NC(=O)[C@@H](NC(=O)OCc1ccccc1)C(C)(C)C,-,Ki,-,-,>1.25 µM
CC(C)C[C@H](NC(=O)[C@@H](NC(=O)CCCCCCCCCCCCCCC(=O)N[C@@H](CCS(C)=O)C(=O)N[C@@H](Cc1ccccc1)C(=O)O)C(C)O)C(=O)N[C@@H](Cc1ccccc1)C(N)=O,-,IC50,-,-,12.6 µM
CNC(=O)[C@@H](NC(=O)[C@H](Sc1cccs1)[C@H](O)[C@@H](O)[C@@H](Sc1cccs1)C(=O)N[C@H](C(=O)NC)C(C)C)C(C)C,-,Ki,-,fluorescence,0.0042 µM
O=S1(=O)N(Cc2ccc(-c3cccs3)cc2)[C@H](COc2ccccc2)[C@H](O)[C@@H](O)[C@@H](COc2ccccc2)N1Cc1ccc(-c2cccs2)cc1,-,Ki,PR-I84V,-,28 µM
CC(C)(C)[C@H](NC(=O)c1nc2ccccc2[nH]1)C(=O)N[C@@H](Cc1ccccc1)[C@@H](O)[C@H](CO)[C@H](Cc1ccccc1)NC(=O)[C@@H](NC(=O)c1nc2ccccc2[nH]1)C(C)(C)C,-,Ki,-,-,>12.5 µM
CC(C)[C@H](NC(=O)N(C)Cc1ccccn1)C(=O)N[C@@H](Cc1ccccc1)[C@H](O)[C@@H](O)[C@H](Cc1ccccc1)NC(=O)[C@@H](NC(=O)N(C)Cc1ccccn1)C(C)C,-,IC50,-,fluorescence,<0.001 µM
O=S1(=O)N(Cc2ccc(CO)cc2)[C@H](COc2ccccc2)[C@H](O)[C@@H](O)[C@@H](COc2ccccc2)N1Cc1ccc(CO)cc1,-,Ki,PR-G48V L90M,-,0.0082 µM
CCCCCCCC/C=C\CCCCCCCC(=O)N(CC(=O)N(CC(=O)N(Cc1ccccc1)CC(O)CN(Cc1ccccc1)C(=O)CN(C(=O)CN(C(=O)CCCCCCC/C=C\CCCCCCCC)C(C)C)C(C)C)C(C)C)C(C)C,-,IC50,-,-,10 µM
CC(C)(C)NC(=O)[C@@H]1CN(Cc2cc3ccsc3s2)CCN1C[C@@H](O)C[C@@H](Cc1ccncc1)C(=O)N[C@H]1c2ccccc2C[C@H]1O,-,IC50,-,-,0.00008 µM
CCC(Cc1ccccc1)c1cc(O)c(C(CC)c2ccccc2)c(=O)o1,-,Ki,-,substrate cleavage,0.04 µM
CCCC[C@H](NC(=O)[C@@H](NC(=O)CCCCCCCCCCCCCCC(=O)N[C@@H](CC(N)=O)C(=O)N[C@@H](Cc1ccccc1)C(=O)O)C(C)O)C(=O)N[C@@H](Cc1ccccc1)C(N)=O,-,IC50,-,-,10.5 µM
CC(C)NC(=O)[C@@H]1C[C@@H]2CCCC[C@@H]2N1C(=O)[C@@H](O)[C@H](Cc1ccccc1)NC(=O)[C@@H](NC(=O)COc1cccc2ccccc12)C(C)C,BRU,IC50,-,substrate cleavage,0.0036 µM
O=S1(=O)N(Cc2cccc(-c3cccs3)c2)[C@H](COc2ccccc2)[C@H](O)[C@@H](O)[C@@H](COc2ccccc2)N1Cc1cccc(-c2cccs2)c1,-,Ki,PR-G48V L90M,-,18 µM
COC(=O)[C@H](C)NC(=O)[C@@H](NC(=O)[C@H](Cc1ccccc1)CC(O)C[C@H](Cc1ccccc1)C(=O)N[C@H](C(=O)N[C@H](C(=O)OC)C(C)C)C(C)C)C(C)C,-,Ki,-,-,0.013 µM
CC(C)C[C@H](NC(=O)[C@@H](NC(=O)CCCCCCCCCCCCCCC(=O)N[C@@H](CC(N)=O)C(=O)N[C@@H](Cc1ccccc1)C(=O)O)C(C)O)C(=O)N[C@@H](Cc1ccccc1)C(N)=O,-,Ki,-,-,3 µM
[O]=[V](=[O])[O-],SF2,IC50,-,fluorescence,7.6 µM

An empty or dashed field is not shown. Conditions beyond the fields shown may differ between rows.